# Experimental data published in patent US8673620B2, “Radioresistant alga of the Coccomyxa genus” (priority 2010, dated 2014).
# Tests used:
# Coccomyxa actinabiotis [1] = experiment: Kinetics of binding and incorporation of silver by algae with or without mucilage; assay type: cell-based
# Procedure: Two series of experiments were carried out: one with algae having a coating of mucilage, the thickness of which, evaluated by optical microscopy, is about 1 μm or more (“algae with mucilage”), the other with algae cultured in BBM medium and having little or no mucilage (“algae without mucilage”).
# 20 mg of algae (compacted fresh mass) and 90 ml of solution of Ag^+ at various concentrations are introduced into Erlenmeyer flasks. The 20 mg of algae are prepared as follows: sample taken from a round-bottomed culture flask, centrifugation for 20 minutes at 3000 rpm, washing twice in demineralized water (suspension, centrifugation). The culture medium is thus removed and there is no risk of it complexing the silver.
# The algae without mucilage are brought into contact with solutions containing 0.11 mg/L and 5.5 mg/L of Ag^+.
# The algae with mucilage are brought into contact with solutions containing 22 μg/L, 1.1 mg/L and 55 mg/L of Ag^+.
# The Erlenmeyer flasks are placed on illuminated shakers and samples of 5 ml are taken for various exposure times in order to monitor the binding kinetics for each of the initial concentrations of silver. The samples are centrifuged for 10 minutes at 4500 rpm in order to separate the algae which have concentrated the metal. The metal content is then analyzed in the pellet (algae) and in the supernatant.
# Coccomyxa actinabiotis [2] = experiment: Maximum metal concentrations bound (BBM medium diluted 10 times); assay type: cell-based; conditions: 6.7×10^−4 mol silver per gram of alga, BBM diluted 10 times
structure (smiles),measurement,setting,value
[Ag] [silver],silver bound at the plateau,"Coccomyxa actinabiotis [1]; algae with mucilage, initial concentration 1.1 mg/l",all
same,silver bound at the plateau,"Coccomyxa actinabiotis [1]; algae without mucilage, initial concentration 0.11 mg/l",all
same,silver bound per gram of fresh mass,Coccomyxa actinabiotis [2],up to 43.7 mg
same,"silver bound, dry mass",Coccomyxa actinabiotis [2],approximately 450 mg/g
